Molecular target: HLA-A2 (human (endogenous in lymphoblastoid cell line))
Assay: radioligand binding

M.57-68 (peptide)
IC50: 10 µM
